According to PubChem BioAssay AID588335 (The Scripps Research Institute Molecular Screening Center, 2011):
This is a selection; strong and weak results do not stand in their true shares. Active and inactive are the calls of the source. No stated cut-off is given here; in the data, active means inhibition above about 30%; inactive means the rest.

Assay: GDH-TPI coupling enzyme inhibitors, primary screen, artefact control for M. tuberculosis FBA inhibitor project, biochemical, absorbance, full deck (AID 588335);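 further: 0% = DMSO wells and 100% = wells lacking the enzyme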
Conditions: GDH-TPI coupled enzyme counterscreen, NADH absorbance; at 4.8 µM; active compounds read high
With Nc1ccc([As](=O)(O)c2ccc(N)cc2)cc1 the inhibition was inactive: 21%. In the case of CCc1nc2c(n1)c1c(non1O)c1c2no[n+]1[O-], the inhibition is reported as inactive: 17.2%. With O=[N+]([O-])c1cc([N+](=O)[O-])c(CCNc2ccccc2)c([N+](=O)[O-])c1 the inhibition was inactive: -0.32%. In the case of Cc1ccc(NP(=O)(Oc2ccccc2)Oc2ccccc2)nc1, the inhibition is reported as inactive: -0.62%. With O=[N+]([O-])c1cccc2n[nH]nc12 the inhibition was inactive: 13.3%. In the case of CC(=O)N1C2C3N(C(C)=O)C1C1N(C(C)=O)C(C(N1C(C)=O)N3C(C)=O)N2C(C)=O, the inhibition is reported as inactive: 3.22%. For COc1ccc(C2=NCC(CBr)S2)cc1 (stereo not given), the inhibition was inactive: -4.42%. With O=C(NC(Sc1ccncn1)C(Cl)(Cl)Cl)c1ccccc1 (stereo not given) the inhibition was inactive: -7.41%. In the case of Oc1ccccc1CNc1ccccn1, the inhibition is reported as inactive: 9.43%. In the case of Nc1cc(N)c2nonc2c1[N+](=O)[O-], the inhibition is reported as inactive: 11.6%. In the case of CC(C)CC(=O)NC(Sc1ccc(Cl)cc1)C(Cl)(Cl)Cl (stereo not given), the inhibition is reported as inactive: 3.27%. For CN1CCCC(OC(=O)C(c2ccccc2)c2ccccc2)C1 (stereo not given), the inhibition was inactive: 1.24%. In the case of Clc1ccc(Cl)c(NC2=NCC(CBr)S2)c1 (stereo not given), the inhibition is reported as inactive: -6.09%. For Cc1ccc(OP(=O)(Nc2nccs2)Oc2ccc(C)cc2)cc1, the inhibition was inactive: -3.45%. For COc1ccccc1OP(=O)(Nc1ccc(C)cn1)Oc1ccccc1OC, the inhibition was inactive: 3.77%. In the case of Cc1ccc(N/C(=N/P(=O)(N2CCOCC2)N2CCOCC2)N2CCOCC2)cc1, the inhibition is reported as inactive: 6.01%. For CN(C(=O)Cc1ccc(Cl)c(Cl)c1)[C@H]1CCCC[C@H]1N1CCCC1, the inhibition was inactive: -6.74%. In the case of NC(=O)c1cc([N+](=O)[O-])cc([N+](=O)[O-])c1N, the inhibition is reported as inactive: 9.9%. For Nc1cccc2ccc([As](=O)(O)O)cc12, the inhibition was inactive: 1.9%. For CCN(N=Nc1nonc1N)c1nonc1N, the inhibition was inactive: 16.2%. With Cc1ccc(NP(=O)(Oc2ccccc2F)Oc2ccccc2F)nc1 the inhibition was inactive: 0.8%. For CN(C(=O)Cc1ccc(Cl)c(Cl)c1)[C@H]1CCCC[C@@H]1N1CCCC1, the inhibition was inactive: 10.1%. In the case of Cc1cc(SC(NC(=O)c2ccc(F)cc2)C(Cl)(Cl)Cl)ncn1 (stereo not given), the inhibition is reported as inactive: -6.93%. In the case of CCOP(=O)(Nc1ccccc1)OCC, the inhibition is reported as inactive: -0.64%. For O=P(Nc1nc2ccc(Cl)cc2s1)(c1ccccc1)c1ccccc1, the inhibition was inactive: -8.03%. In the case of CN(C)P(=O)(N(C)C)n1c(Nc2ccccc2)nnc1-c1ccccc1, the inhibition is reported as inactive: 0.88%. For CCCC1OP(N)(=O)OCC1CC (stereo not given), the inhibition was inactive: 7.02%. In the case of CC(=O)Nc1ccc([As](=O)(O)O)cc1, the inhibition is reported as inactive: 5.26%. In the case of O=C(O)c1ccccc1[As](=O)(O)O, the inhibition is reported as inactive: 0.43%. For O=c1c2cc([N+](=O)[O-])ccc2[nH]c2c([N+](=O)[O-])cc([N+](=O)[O-])cc12, the inhibition was inactive: 12.8%. In the case of CN(C)C(=O)Oc1noc2ccccc12, the inhibition is reported as inactive: -13.1%. For CC(NC(=O)COC(=O)C(O)(c1ccccc1)c1ccccc1)c1ccccc1 (stereo not given), the inhibition was inactive: 8.63%. For Cc1ccccc1OP(=O)(Nc1ccccn1)Oc1ccccc1C, the inhibition was inactive: 5.37%. In the case of CCC(=O)N1C2C3N(C(=O)CC)C1C1N(C(=O)CC)C(C(N1C(=O)CC)N3C(=O)CC)N2C(=O)CC, the inhibition is reported as inactive: -3.81%. In the case of O=C(OC1CN2CCC1CC2)c1ccccc1 (stereo not given), the inhibition is reported as inactive: -10%. In the case of Cc1ccc(OP(=O)(Nc2ccccn2)Oc2ccc(C)cc2)cc1, the inhibition is reported as inactive: -4.97%. With CC(=O)NC(SC(=S)N(CC(C)C)CC(C)C)C(Cl)(Cl)Cl (stereo not given) the inhibition was inactive: 1.84%. For COC(=O)c1cc2c(s1)N=C(c1ccccc1)N(C)P2(=O)N1CCOCC1 (stereo not given), the inhibition was inactive: 4.38%. With O=P1(N(CCCl)CCCl)OCCC2CCCCN21 (stereo not given) the inhibition was inactive: 4.41%. With Cc1ccc(NP(=O)(Oc2cccc(C)c2)Oc2cccc(C)c2)nc1 the inhibition was inactive: -3.83%. In the case of c1ccc(-c2nn[nH]n2)c(-c2nn[nH]n2)c1, the inhibition is reported as inactive: 3.79%. In the case of CCNC(=S)/N=C(\N)N[N+](=O)[O-], the inhibition is reported as inactive: -0.31%. With O=C(NC1CCS(=O)(=O)C1)NP(=S)(Oc1ccccc1)Oc1ccccc1 (stereo not given) the inhibition was inactive: -6.73%. With CC(=O)Nc1ccc(Oc2c([N+](=O)[O-])cc([N+](=O)[O-])cc2[N+](=O)[O-])cc1 the inhibition was inactive: 12.3%. With CC(=O)Nc1ccc([As](=O)(O)O)c(O)c1 the inhibition was inactive: 7.41%. For C[C@H]1OP(=O)(Oc2ccccc2)C[C@@H]2O[C@@H]21 (stereo not given in full), the inhibition was inactive: -4.09%. In the case of C[C@@H]1C=CCP(=O)(Oc2ccccc2)O1 (stereo not given in full), the inhibition is reported as inactive: 6.81%. For Cc1ccccc1CN(C)C(=O)COC(=O)C(O)(c1ccccc1)c1ccccc1, the inhibition was inactive: 13.7%. With COC(=O)C1(C)COP(=O)(NCc2ccccc2)OC1 (stereo not given) the inhibition was inactive: 4.13%. With CC(=O)c1ccc(N2CC2c2ccncc2)cc1 (stereo not given) the inhibition was inactive: 21.9%. With N#C/C(=C\c1ccc(N(CCBr)CCBr)cc1)C(N)=O the inhibition was inactive: 12.4%. With CC(C)(C)C(=O)NC(Sc1ccccc1)C(Cl)(Cl)Cl (stereo not given) the inhibition was inactive: -5.18%. With CCc1cc(O)c([N+](=O)[O-])c(C)c1[N+](=O)[O-] the inhibition was inactive: 7.66%. In the case of CCOc1ccc(C2=NCC(CBr)S2)cc1 (stereo not given), the inhibition is reported as inactive: -3.21%. For O=P1(Nc2nc3ccc(Cl)cc3s2)COc2ccccc2O1 (stereo not given), the inhibition was inactive: -8.9%. With c1nnnn1CCn1cnnn1 the inhibition was inactive: 1.23%. For CC(C)C(=O)NC(Sc1ccccc1)C(Cl)(Cl)Cl (stereo not given), the inhibition was inactive: 9.89%. With O=P(Nc1nccs1)(c1ccccc1)c1ccccc1 the inhibition was inactive: 2.52%. In the case of O=C(OC1CN2CCC1CC2)c1cccc(Cl)c1 (stereo not given), the inhibition is reported as inactive: 2.74%. For C(Cc1nn[nH]n1)Cc1nn[nH]n1, the inhibition was inactive: 5.47%. For Nc1ccc([As](=O)(O)c2ccc([N+](=O)[O-])cc2)cc1, the inhibition was inactive: 2.53%. With O=[As](O)(c1ccccc1)c1ccc(O)cc1 the inhibition was inactive: 13.9%. With O=[N+]([O-])c1ccc(O)c(/C=N/Nc2ccc([N+](=O)[O-])cc2[N+](=O)[O-])c1 the inhibition was inactive: 1.52%. With O=[N+]([O-])c1ncn(CCn2cnc([N+](=O)[O-])n2)n1 the inhibition was inactive: 3.59%. In the case of CC(=O)NC(SC(=S)N(C)C)C(Cl)(Cl)Cl (stereo not given), the inhibition is reported as inactive: 0.78%. With C[C@H]1OP(=O)(Oc2ccccc2)[C@H](O)[C@H](O)[C@H]1N=[N+]=[N-] (stereo not given in full) the inhibition was inactive: 1.36%. With O=P(Nc1nc2ccccc2s1)(c1ccccc1)c1ccccc1 the inhibition was inactive: 0%. With O=P(Nc1ccccn1)(c1ccc(Br)cc1)c1ccc(Br)cc1 the inhibition was inactive: 5.59%. In the case of CN(C)C1(CNC(=O)c2ccc(Cl)c(S(N)(=O)=O)c2)CCCCC1, the inhibition is reported as inactive: -8.89%. In the case of COc1ccc(N)c([N+](=O)[O-])c1[N+](=O)[O-], the inhibition is reported as inactive: 3.88%.
